Measured data: PubChem BioAssay AID504761 (Drosophila RNAi Screening Center, 2011)
Screen: 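Fly genes whose silencing reduces dengue virus type 2 infection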 (primary screen). Cell system: D.Mel-2 cells from Drosophila. Reagents: long dsRNA against Drosophila genes. Challenge: infection with dengue virus type 2; dose and infection time not stated. Measured: 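Per well on two replicate plates, imaging gave the percent of cells positive for viral envelope protein, ranked by infection, and a nuclear count of cells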. Scale: infection score: higher = more virus-infected cells; cell count: higher = more cells in the well. Call rule: 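Low infection ranks in the two replicates (chance level up to 0.065) followed by a retest with a 1.5-fold or larger significant decrease, p below 0.05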. Meaning of the calls: active = confirmed: knock-down lowers infection; inactive = not picked or not confirmed.
In all, the deposit lists about 22,000 reagents; shown is a random part of those with a known target gene and a result. Of all reagents, 116 (0.52%) got an active call. 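Calls depend on retest data that are not deposited; infection was ranked per plate without normalising between plates; the unit of the infection score is not given.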 Raw values vary from plate to plate and are shown uncorrected. Entries without a mark were called inactive. Reagents against one gene are numbered here. A plus sign joins genes that one reagent is predicted to hit. Not stated in the record: the amount of reagent, the time to read-out.

gene knocked down	dsRNA no.	infection score, replicate 1	infection score, replicate 2	cell count, replicate 1	cell count, replicate 2
CG9592	1	0.72	4.11	5950	5980
CG7950 + Rpp14a	1	3.54	7.88	6471	6831
CG7950 + Rpp14a	2	9.41	0.88	1689	679
Rbbp5	1	13.2	11.9	4907	6029
Ccp84Ac	1	7.7	25.6	5951	5167
Ccp84Ac	2	5.41	1.63	6538	6740
CARPA	1		25.7	360	5164
CARPA	2	3.12	3.32	5968	6806
CG2964	1	2.72	6.09	7160	6900
CG3008	1	12.2	4.74	7003	7201
CG5966	1	6.31	1.31	6022	6257
ZAP3	1	6.08	5.58	5892	6182
ZAP3	2	2.02	5.5	5743	6214
ZAP3	3	15.4	12.1	3007	3748
CCT2	1	1.76	11.7	4956	4987
CCT2	2	4.88	18.7	6620	6086
CG14851	1	2.68	1.75	6559	801
CG14851	2	0.57 (active)	1.8	5923	6447
CG14851	3	12.5	27.8	5974	4620
CG2157	1	1.14	2.87	6409	6645
Atg14	1	1.15	2.59	6080	6132
Atg14	2	2.3	21.1	5882	6296
Tis11	1	1.79	7.63	6603	6458
Prp4k	1	11.7	8.18	5674	6024
Prp4k	2	10.6	13.7	6272	6392
Mdr49	1	26	8.62	5878	6065
Mdr49	2	6.39	0.75	5759	5897
RNaseMRP:RNA	1	0.88	5.65	6441	6660
CG14757	1		10.1	492	6401
CG14757	2	8.2	10.6	4868	4851
PGRP-SC1a + PGRP-SC1b	1	1.96	3.31	6331	5957
CCT8	1	15.2	5.83	2987	4031
CCT8	2	15.4	8.86	3553	3453
kune	1	9.62	3.31	5727	6580
Fmo-1	1	24	37.4	6263	3560
Fmo-1	2	3.55		705	216
Nox	1	16	27	3996	5459
Nox	2	22.2	21.1	5788	1913
Nox	3	6.85	15.1	6935	6517
Nox	4	22.2	15.8	6512	6308
